Compound potency records, mixed from different reports. Data source: NIAID ChemDB in PubChem.

All rows: tests in culture; species: Cryptosporidium parvum; read-out: EC50

An empty or dashed field is not shown.

| compound | strain | cell line | value |
|---|---|---|---|
| Cc1c(N)nc([C@H](CC(N)=O)NC[C@H](N)C(N)=O)nc1C(=O)N[C@H](C(=O)N[C@H](C)[C@@H](O)[C@H](C)C(=O)N[C@H](C(=O)NCCc1nc(-c2nc(C(=O)NCCC[S+](C)C)cs2)cs1)[C@@H](C)O)C(O[C@@H]1O[C@@H](CO)[C@@H](O)[C@H](O)[C@@H]1O[C@H]1O[C@H](CO)[C@@H](O)[C@H](OC(N)=O)[C@@H]1O)c1cnc[nH]1 |  | HCT-8 | >1 µM |
| CCCc1ncc(C[n+]2ccccc2C)c(N)n1 | Calf isolate | L929 | >4 µg/mL |
| O=C(O[C@@H]1Cc2c(O)cc(O)cc2O[C@@H]1c1cc(O)c(O)c(O)c1)c1cc(O)c(O)c(O)c1 |  | HCT-8 | >100 µM |
| C[C@H]1c2cccc(O)c2C(O)=C2C(=O)[C@]3(O)C(O)=C(C(N)=O)C(=O)[C@@H](N(C)C)[C@@H]3[C@@H](O)[C@@H]21 |  | HCT-8 | >1 µM |
| CCCC(CC1CC1)c1c([N+](=O)[O-])cc(C(F)(F)F)cc1[N+](=O)[O-] |  |  | 1.9 µM |
| CC[C@@]1([C@@H]2O[C@@H]([C@H]3O[C@@](O)(CO)[C@H](C)C[C@@H]3C)C[C@@H]2C)CC[C@H]([C@]2(C)CC[C@]3(C[C@H](O)[C@@H](C)[C@@H]([C@@H](C)[C@@H](OC)[C@H](C)C(=O)O)O3)O2)O1 |  | HCT-8 | <1 µM |
| CC(=O)Oc1ccc(C)cc1C(=O)Nc1ncc(Cl)s1 |  |  | 0.8 µg/mL |
| CC[C@@H](C(=O)[C@@H](C)[C@@H](O)[C@H](C)CCc1ccc(C)c(O)c1C(=O)O)[C@H]1O[C@](CC)([C@H]2CC[C@](O)(CC)[C@H](C)O2)C[C@@H]1C |  | HCT-8 | <1 µM |
| Nc1ccc(S(=O)(=O)Nc2cnc3ccccc3n2)cc1 | Human isolate | L929 | <0.8 µg/mL |
| COc1cc([C@H]2Oc3cc([C@H]4Oc5cc(O)cc(O)c5C(=O)[C@@H]4O)ccc3O[C@@H]2CO)ccc1O |  | HCT-8 | 15 µM |
| C[C@H]1[C@H](O)[C@@H](C)/C=C/C=C/C=C/C=C/C=C/C=C/C=C/[C@H](O[C@@H]2O[C@H](C)[C@@H](O)[C@H](N)[C@@H]2O)C[C@@H]2O[C@](O)(C[C@@H](O)C[C@@H](O)CC[C@H](O)[C@@H](O)C[C@@H](O)CC(=O)O[C@H]1C)C[C@H](O)[C@H]2C(=O)O | Calf isolate | L929 | >20 µg/mL |
| C[C@@H]1O[C@@H](OC[C@H]2O[C@@H](Oc3c(-c4ccc(O)c(O)c4)oc4cc(O)cc(O)c4c3=O)[C@H](O)[C@@H](O)[C@@H]2O)[C@H](O)[C@H](O)[C@H]1O |  | HCT-8 | >100 µM |
| CN(C)[C@@H]1C(=O)C(C(N)=O)=C(O)[C@@]2(O)C(=O)C3=C(O)c4c(O)cccc4[C@@](C)(O)[C@H]3[C@H](O)[C@@H]12 | Calf isolate | L929 | >20 µg/mL |
| CCC(CC)Nc1c([N+](=O)[O-])cc(C)c(C)c1[N+](=O)[O-] |  |  | 0.19 µM |
| O=S(=O)(F)Cc1ccccc1 |  |  | >2000 µM |
| CCN(CC)CCCC(C)Nc1ccnc2cc(Cl)ccc12 | Calf isolate | L929 | >20 µg/mL |

2 of the rows above, restated:

compound	strain	cell line	value
CN(C)[C@@H]1C(=O)C(C(N)=O)=C(O)[C@@]2(O)C(=O)C3=C(O)c4c(O)cccc4[C@@](C)(O)[C@H]3[C@H](O)[C@@H]12	Calf isolate	L929	>20 µg/mL
Cc1c(N)nc([C@H](CC(N)=O)NC[C@H](N)C(N)=O)nc1C(=O)N[C@H](C(=O)N[C@H](C)[C@@H](O)[C@H](C)C(=O)N[C@H](C(=O)NCCc1nc(-c2nc(C(=O)NCCC[S+](C)C)cs2)cs1)[C@@H](C)O)C(O[C@@H]1O[C@@H](CO)[C@@H](O)[C@H](O)[C@@H]1O[C@H]1O[C@H](CO)[C@@H](O)[C@H](OC(N)=O)[C@@H]1O)c1cnc[nH]1		HCT-8	>1 µM

Rows are shuffled and stem from different studies. ECn: concentration that inhibits the pathogen or its effect by n%.